# PubChem BioAssay AID504761, Drosophila RNAi Screening Center | 2011
# Assay: 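Insect host genes that dengue virus relies on to spread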 (primary screen)
# Cells: D.Mel-2 cells from Drosophila
# Knock-down reagent: long dsRNA against Drosophila genes
# Treatment: infection with dengue virus type 2; dose and infection time not stated
# Read-out: 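Per well on two replicate plates, imaging gave the percent of cells positive for viral envelope protein, ranked by infection, and a nuclear count of cells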
# Direction: infection score: higher = more virus-infected cells; cell count: higher = more cells in the well
# Active means: 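Very low infection ranking in both replicate wells (chance probability at most 0.065), then a retest showing infection dropped 1.5-fold or more at p below 0.05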
# Calls: active = confirmed: knock-down lowers infection; inactive = not picked or not confirmed
# In all, the deposit lists about 22,000 reagents; below is an unselected part of those with a known target gene and a result. In the full data, 116 (0.52%) are marked active. 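Calls depend on retest data that are not deposited; infection was ranked per plate without normalising between plates; the unit of the infection score is not given.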 The raw values are shown without normalisation. Entries without a mark were called inactive. No sequences are given here. The record does not give: the amount of reagent, the time to read-out.
target,dsRNA,"infection score, replicate 1","infection score, replicate 2","cell count, replicate 1","cell count, replicate 2"
CG3687 (GeneID 36803),DRSC06850,4.35,13.6,827,3129
CG3687 (GeneID 36803),DRSC29588,,,349,359
CG15699 (retired record) (GeneID 36756),DRSC06571,38.8,14.3,6017,7007
p-cup (GeneID 32727),DRSC19513,4.99,4.26,6593,6811
Zip42C.1 (GeneID 35579),DRSC05003,6.88,12.2,6906,6288
TotB (GeneID 42474),DRSC15842,3.8,18.4,6895,5514
CG6441 (GeneID 34029),DRSC02957,17.1,3.82,4720,6413
Cog6 (GeneID 35953),DRSC06806,14.3,4.98,5841,6229
Cog6 (GeneID 35953),DRSC29566,,16.8,339,2921
eff (GeneID 41785),DRSC16940,19.4,14.4,6037,5750
CG12099 (GeneID 38181),DRSC08253,2.7,2.09,5932,6077
Xpd (GeneID 37414),DRSC04666,3.11,6.62,6549,2751
Xpd (GeneID 37414),DRSC27757,19.3,26.3,6128,5651

Sorted by “cell count, replicate 1” (lowest first): some entries from above.
target,dsRNA,"infection score, replicate 1","infection score, replicate 2","cell count, replicate 1","cell count, replicate 2"
Xpd (GeneID 37414),DRSC27757,19.3,26.3,6128,5651
Xpd (GeneID 37414),DRSC04666,3.11,6.62,6549,2751

The list goes on:
target,dsRNA,"infection score, replicate 1","infection score, replicate 2","cell count, replicate 1","cell count, replicate 2"
Mulk (GeneID 326168),DRSC02658,9.58,20.3,5667,5797
Psf1 (GeneID 38136),DRSC08638,3.15,8.69,6701,6455
Psf1 (GeneID 38136),DRSC24486,6.41,6.54,6861,6296
CG1523 (GeneID 43400),DRSC15033,2.17,9.83,6037,916
CG1523 (GeneID 43400),DRSC26315,13.5,6.37,5870,6425
PolE4 (GeneID 37560),DRSC04105,,0.38,635,524
CG32281 (GeneID 317953),DRSC08236,11.6,12.9,6203,5510
CG9986 (GeneID 43386),DRSC16586,5.52,,5854,224
CG9986 (GeneID 43386),DRSC29323,14.8,,2661,369
bin (GeneID 38766),DRSC10332,2.87,12.1,6331,6277
bin (GeneID 38766),DRSC29845,1.43,4.76,6699,6402
